The assay relates to C. difficile spores. The conditions noted are these: for triggering of spore germination in the absence of taurocholate: 12 mM, germination buffer, no taurocholate.

For `N[C@@H](Cc1ccccc1)C(=O)O` [Compound A26, L-phenylalanine], the “triggering of spore germination in the absence of taurocholate” value is on record as “do not trigger”. As to `NCC(=O)O` [Compound A01, Glycine], the “triggering of spore germination in the absence of taurocholate” value is on record as “do not trigger”. With `C[C@H](CCC(=O)NCCS(=O)(=O)O)[C@H]1CC[C@H]2[C@@H]3[C@H](O)C[C@@H]4C[C@H](O)CC[C@]4(C)[C@H]3C[C@H](O)[C@]12C` [Taurocholate, 2-[(3α,7α,12α-trihydroxy-24-oxo-5β-cholan-24-yl)amino]ethanesulfonic acid, reference compound], the “effect of supplementing BHIS on spore germination” value (BHIS supplemented with taurocholate) is recorded as “augmented”. As for `C[C@H](CCC(=O)O)[C@H]1CC[C@H]2[C@@H]3[C@H](O)C[C@@H]4C[C@H](O)CC[C@]4(C)[C@H]3CC[C@]12C` [chenodeoxycholate, reference compound], the “effect on taurocholate-enhanced spore germination in BHIS” value (BHIS with 12 mM taurocholate and 12 mM chenodeoxycholate) is on record as “inhibited”. Regarding `C[C@H](CCC(=O)NCC(=O)O)[C@H]1CC[C@H]2[C@@H]3[C@H](O)C[C@@H]4C[C@H](O)CC[C@]4(C)[C@H]3C[C@H](O)[C@]12C` [Compound T17, 3α,7α,12α-Trihydroxy-5β-cholan-24-oic acid N-(carboxymethyl)amide, reference compound], for the setting “BHIS media versus buffer”, the “drop of spore germination rate in BHIS media” value was approximately 10 fold.
